Assay results as given in ChEMBL document CHEMBL4431344, “Synthesis of potent and broad genotypically active NS5B HCV non-nucleoside inhibitors binding to the thumb domain allosteric site 2 of the viral polymerase” (Bioorg Med Chem Lett, 2016).
Where “and” joins values, the source holds several entries; their conditions need not be identical. Identical values can stand only once.

Amino acid sequences for entries named in this document (tags omitted). Residues count along the entry.
UniProt Q81258, 2431-3021 limits assumed: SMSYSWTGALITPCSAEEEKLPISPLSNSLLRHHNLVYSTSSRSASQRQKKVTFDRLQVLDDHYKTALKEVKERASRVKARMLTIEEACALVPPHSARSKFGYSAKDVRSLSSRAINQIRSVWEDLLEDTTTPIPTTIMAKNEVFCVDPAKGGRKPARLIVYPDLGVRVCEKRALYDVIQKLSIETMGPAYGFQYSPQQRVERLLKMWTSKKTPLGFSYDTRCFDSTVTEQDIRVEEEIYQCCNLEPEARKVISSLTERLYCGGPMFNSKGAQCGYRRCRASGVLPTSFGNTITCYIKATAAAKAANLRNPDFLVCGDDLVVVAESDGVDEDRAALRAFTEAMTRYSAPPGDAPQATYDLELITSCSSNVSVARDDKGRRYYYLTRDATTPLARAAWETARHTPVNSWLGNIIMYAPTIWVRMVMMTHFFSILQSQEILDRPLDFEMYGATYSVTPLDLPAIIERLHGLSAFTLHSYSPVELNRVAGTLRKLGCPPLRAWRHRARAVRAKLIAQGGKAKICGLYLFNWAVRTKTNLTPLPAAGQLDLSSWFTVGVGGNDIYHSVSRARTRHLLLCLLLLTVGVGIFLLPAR
UniProt O39930, 1-591: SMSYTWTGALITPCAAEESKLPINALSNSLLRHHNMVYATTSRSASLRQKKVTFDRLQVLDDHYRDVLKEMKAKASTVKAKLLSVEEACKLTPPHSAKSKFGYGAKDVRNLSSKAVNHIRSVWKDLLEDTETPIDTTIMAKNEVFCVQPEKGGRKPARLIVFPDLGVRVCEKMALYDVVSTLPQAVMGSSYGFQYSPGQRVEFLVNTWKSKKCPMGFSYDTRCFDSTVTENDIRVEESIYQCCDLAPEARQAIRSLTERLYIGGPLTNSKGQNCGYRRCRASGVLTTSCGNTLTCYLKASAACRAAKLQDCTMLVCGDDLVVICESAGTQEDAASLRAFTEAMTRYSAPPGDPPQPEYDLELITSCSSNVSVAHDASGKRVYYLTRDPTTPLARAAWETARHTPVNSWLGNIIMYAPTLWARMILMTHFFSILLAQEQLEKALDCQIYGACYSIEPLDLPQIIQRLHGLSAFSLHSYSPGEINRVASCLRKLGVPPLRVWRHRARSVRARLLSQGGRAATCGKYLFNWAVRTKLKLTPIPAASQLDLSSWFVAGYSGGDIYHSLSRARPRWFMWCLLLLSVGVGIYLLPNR
UniProt Q9WMX2, 2420-3010 limits assumed: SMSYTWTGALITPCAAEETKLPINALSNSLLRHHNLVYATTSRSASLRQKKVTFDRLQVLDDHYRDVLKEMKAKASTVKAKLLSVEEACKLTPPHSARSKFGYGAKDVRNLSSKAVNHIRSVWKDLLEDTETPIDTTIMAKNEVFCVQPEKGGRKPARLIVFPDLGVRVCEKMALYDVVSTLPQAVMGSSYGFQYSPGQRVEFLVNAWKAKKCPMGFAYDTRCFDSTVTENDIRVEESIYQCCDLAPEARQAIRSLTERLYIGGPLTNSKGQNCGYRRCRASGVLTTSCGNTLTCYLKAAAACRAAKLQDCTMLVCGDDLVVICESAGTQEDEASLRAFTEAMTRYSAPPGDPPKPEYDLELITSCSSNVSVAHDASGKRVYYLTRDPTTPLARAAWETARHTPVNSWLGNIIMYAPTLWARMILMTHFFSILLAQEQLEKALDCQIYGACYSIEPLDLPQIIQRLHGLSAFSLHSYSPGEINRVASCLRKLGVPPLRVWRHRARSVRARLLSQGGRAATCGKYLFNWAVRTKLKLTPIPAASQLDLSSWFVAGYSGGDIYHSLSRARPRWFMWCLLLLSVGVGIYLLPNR

Tests used:
[1] = target: Genome polyprotein (Hepatitis C virus genotype 3a (isolate NZL1) (HCV), UniProt Q81258); experiment: Inhibition of HCV genotype 3a NZL1 NS5B RNA dependent RNA polymerase
[2] = target: T1, RNA-directed RNA polymerase (Hepacivirus hominis, UniProt O39930); experiment: Inhibition of HCV genotype 2a JFH NS5B RNA dependent RNA polymerase; parameters: species or system Hepatitis C virus subtype 2a
[3] = target: Genome polyprotein (Hepatitis C virus genotype 1b (isolate Con1) (HCV), UniProt Q9WMX2); experiment: Inhibition of HCV genotype 1b Con1 NS5B RNA dependent RNA polymerase
[4] = tested on: Hepatitis C virus; experiment: Antiviral activity against HCV assessed as inhibition of viral RNA replication in replicon cells by luciferase reporter gene assay; format: functional, Hepacivirus hominis
[5] = target: T1, RNA-directed RNA polymerase; experiment: Inhibition of HCV genotype 4a1 NS5B RNA dependent RNA polymerase

Q: With `COP(=O)(Nc1nn(-c2ccc(-c3cc4ncccn4n3)cc2)cc1C(=O)O)c1ccc(C)cc1C` (stereo not given) as the compound, how does the IC50 [1] read?
A: The IC50 was 5720 nM.

Q: And the IC50 [2]?
A: Its IC50 is 3550 nM.

Q: And the IC50 [3]?
A: The IC50 was 33.5 nM.

Q: What about the EC50 [4] of the same compound?
A: The EC50 was 17.8 nM.

Q: What about the IC50 [5] of the same compound?
A: The IC50 was 431 nM.

Q: Which IC50 [1] does the source give for `COP(=O)(Nc1nn(-c2ccc(-c3cc4nc(C)cc(N)n4n3)cc2)cc1C(=O)O)c1ccc(C)cc1C` (stereo not given) here?
A: The IC50 was 181 nM.

Q: What about the IC50 [2] of the same compound?
A: Its IC50 is 254 nM.

Q: And the IC50 [3]?
A: Its IC50 is 9.9 nM and 18.5 nM and 12.7 nM.

Q: And the EC50 [4]?
A: The EC50 was 0.4 nM.

Q: What about the IC50 [5] of the same compound?
A: The IC50 was 25.7 nM.

Q: What does the source list for `COP(=O)(Nc1nc(-c2ccc(-c3cc4nc(C)cc(N)n4n3)cc2)sc1C(=O)O)c1ccc(C)cc1C` (stereo not given)?
A: IC50 [1]: 119 nM; IC50 [2]: 272 nM; IC50 [3]: 14.3 nM; EC50 [4]: 0.3 nM; IC50 [5]: 24.4 nM

Q: Which results are given for `COP(=O)(Nc1nc(-c2ccc(-c3cc4nccc(N)n4n3)cc2)sc1C(=O)O)c1ccc(C)cc1C` (stereo not given)?
A: IC50 [1]: 160 nM; IC50 [2]: 337 nM; IC50 [3]: 18 nM; EC50 [4]: 0.8 nM; IC50 [5]: 51.7 nM

Q: Which results are given for `COP(=O)(Nc1nn(-c2ccc(-c3cc4nc(C)ccn4n3)cc2)cc1C(=O)O)c1ccc(C)cc1C` (stereo not given)?
A: IC50 [1]: 3090 nM; IC50 [2]: 2620 nM; IC50 [3]: 25.3 nM; EC50 [4]: 5.6 nM; IC50 [5]: 197 nM

Q: What does the source list for `COP(=O)(Nc1nn(-c2ccc(-c3cc4nccc(N)n4n3)cc2)cc1C(=O)O)c1ccc(C)cc1C` (stereo not given)?
A: IC50 [1]: 335 nM; IC50 [2]: 335 nM; IC50 [3]: 16.3 nM; EC50 [4]: 1 nM; IC50 [5]: 75.3 nM
